Data reported in paper PMC3898472, “Molecular Basis for DNA Double-Strand Break Annealing and Primer Extension by an NHEJ DNA Polymerase”.
The exact form of at least one protein or probe is not confirmed. At least one verdict was read from the data and is not stated in words by the source.

Molecular target: Mt-PolDom (LigD polymerase domain) (UniProt P9WNV3)
Assay: EMSA
Details: 200 nM protein; 5'-phosphate on DG; recombinant protein; residues 1-300; label: 32P 5'-end label

Sequence: AGAAGTGTATCTAGTACTCACTGTGATC / GATCACAGTGAGTAC / AGATACACTTCT [1-nt gapped SP1C/T13C/DG-P]
- binding result: binds
